{
  "source": "paper doi:10.1101/2020.01.16.909523",
  "about": "(bioRxiv, 2020)",
  "binders": {"B1": {"name": "EspG3mt (natural protein)", "chain": "not shown"}},
  "molecular_target": "PE5mt-PPE4mt heterodimer (His6 tag cleaved) (Mycobacterium tuberculosis)",
  "assay": "SEC-MALS",
  "data": [
    {"binder": "B1", "values": [
      {"measurement": "stoichiometry N", "value": 1}
    ]}
  ]
}
